From paper PMC10569748 come the findings set out here.

Holding throughout (experiment): purified protein
Common to all, as to conditions: pH 7.5, 25 °C, 2% DMSO, 5 mM DTT, 1 mM CHAPS, 1 mM EDTA

In data set [1] the test system is Cc1cc(=O)oc2cc(NC(=O)[C@H](C)NC(=O)[C@H](CCCNC(=N)N)NC(=O)OCc3ccccc3)ccc12.
Data set [2] has as its system Cc1cc(=O)oc2cc(NC(=O)[C@H](CCCNC(=N)N)NC(=O)[C@H](CCCNC(=N)N)NC(=O)OCc3ccccc3)ccc12.
Data set [3] concerns Cc1cc(=O)oc2cc(NC(=O)[C@H](CCCNC(=N)N)NC(=O)[C@H](Cc3ccccc3)NC(=O)OCc3ccccc3)ccc12.

The term Km denotes the substrate concentration at which the rate is half of its maximum. For orientation: kcat means the maximal rate divided by the concentration of active sites. What is called kcat/Km is the turnover number divided by the Michaelis constant. In the case of cruzain (Trypanosoma cruzi; E208A), in data set [1], the Michaelis constant (Km) was found to be 163 ± 3 µM, the kcat stood at 0.017 s⁻¹ and the kcat/Km amounted to 100 M⁻¹ s⁻¹. For the same substance, in data set [2], the Michaelis constant (Km) is 45 ± 4 µM, the kcat came to 0.27 s⁻¹ and the catalytic efficiency (kcat/Km) was 6000 M⁻¹ s⁻¹. Also, in data set [3], the Km stood at 1.6 ± 0.1 µM, the kcat was 21 s⁻¹ and the kcat/Km was found to be 1.3e+07 M⁻¹ s⁻¹.
